For four compounds, IC50 results are on record in article PMC9871955, “High-throughput screening of SARS-CoV-2 main and papain-like protease inhibitors” (Protein & Cell, 2022).

Where two headings read alike, the source gives them in different places.

This assay deals with SARS-CoV-2 PL^pro (Severe acute respiratory syndrome coronavirus 2, UniProt P0DTD1). Nature of the assay: SARS-CoV-2 PL^pro enzymatic inhibition assay (substrate Z-RLRGG-AMC). The class given is biochemical.
Setting [1] is: Table S2, PL^pro inhibitors, 40 nmol/L enzyme, 50 µmol/L substrate, read-out: IC50.
Where [2] appears, read: Table S3, representative dual inhibitors, read-out: IC50 for PL^pro.
Where [3] appears, read: read-out: IC50 (μM) at S/KM 1/4.
The mark [4] stands for this setting: Table S6, S/KM = 4, read-out: IC50 (μM) at S/KM 4.

As for `O=C(COc1ccc(Cl)cc1)NCc1n[nH]c(=S)n1-c1ccc(Br)cc1` [JK0109-H005], the IC50 under setting [1] stood at 31.1 ± 1.26 µM, the IC50 under setting [2] turned out to be 31.1 ± 1.3 µM and the IC50 under setting [3] came to 16.4 ± 4.1 µM.
As to `CCC(C(=O)NCc1ccco1)n1c(Cc2c(Cl)cccc2Cl)nc2ccccc21` (stereo not drawn) [CD3226-D010], the IC50 came out at 11.1 ± 0.4 µM (Table S6, S/KM = 2, read-out: IC50 (μM) at S/KM 2); 12.5 ± 0.3 µM under setting [4]; 10.8 ± 2.1 µM (read-out: IC50 (μM) at S/KM 1); 8.4 ± 2 µM (read-out: IC50 (μM) at S/KM 1/2).
As for `O=c1sc2ccccc2n1Cc1n[nH]c(=S)n1-c1ccccc1` [JK0946-F007], the IC50 reads like this: under setting [1], 17.01 ± 0.15 µM; under setting [2], 17 ± 0.2 µM; under setting [3], 24.7 ± 3.2 µM; (read-out: IC50 / inhibitory activity toward PL^pro) 10.8 ± 0.5 µM.
On to `COc1ccc(-n2c(CNC(=O)COc3ccc(Cl)cc3Cl)n[nH]c2=S)cc1` [JK0109-B011], for which, under setting [4], the IC50 worked out at 10.1 ± 1 µM.
